{"source": "paper PMC7824859", "about": "“BmK NSPK, a Potent Potassium Channel Inhibitor from Scorpion Buthus martensii Karsch, Promotes Neurite Outgrowth via NGF/TrkA Signaling Pathway” (Toxins, 2021)", "tested_on": "spinal cord neurons (SCNs)", "assay": "Spontaneous calcium oscillation (SCO) measurement, FLIPR Tetra, primary cultured spinal cord neurons", "assay_type": "cell-based, C57BL/6 mice", "conditions": "6-8 DIV", "protocol": "SCN cultures were performed as described previously. The dissociated neurons were planted into poly-L-lysine-coated 35 mm Petri dishes, 96-well plates at densities of 2 × 10^3 cells/dish for patch clamp, 2.25 × 10^5 and 2 × 10^3 cells/well for Ca^2+ imaging and neurite outgrowth experiments, respectively. Cells at 6–8 DIVs (days in vitro) were used to measure K^+ and Na^+ currents, membrane potential, or intracellular Ca^2+ concentration ([Ca^2+]i).\nThe intracellular Ca^2+ concentration [Ca^2+]i of SCNs was measured using FLIPR^Tetra® system (Molecular Devices, Sunnyvale, CA, USA) as described previously.\nAll data were presented as mean ± SEM. Graphing and data analysis were performed using GraphPad Prism software (Version 6.0, San Diego, CA, USA). Concentration–response curves were fitted by a nonlinear logistic equation. The IC50 values and 95% confidence intervals (CI) were determined by nonlinear regression using GraphPad Prism software. Statistical significance between different groups was calculated using an ANOVA and, where appropriate, a Dunnett′s multiple comparison test. A p-value below 0.05 was considered statistically significant.", "data": [{"substance": "BmK NSPK: new short-chain scorpion peptide purified from Buthus martensii Karsch venom, Kv channel inhibitor, sequence by Edman degradation (VGKNVICIHSGQCLIPCIDAGMRFGICKNGICDCTPKG)", "values": [{"measurement": "Hill slope, SCO amplitude concentration-response", "value": 1.0}, {"measurement": "Hill slope, SCO frequency concentration-response", "value": 1.0}]}]}
